Anti-infective test results gathered from many reports (values: NIAID ChemDB through PubChem).

Common to all: tests in culture; agent: HIV-1; cell line: CEM; read-out: EC50

Blank or dashed fields: not listed here. Rows are shuffled and stem from different studies. ECn: concentration that inhibits the pathogen or its effect by n%.

Cc1cc(C)cc(C(=O)c2c(C(C)C)c(=O)[nH]c(=O)n2CC2CC=CC2)c1 ; strain or isolate: IIIB ; method: XTT ; result: 0.0004 µM
CN(C)c1cccc(C(=O)c2ccc3c(c2)sc(=O)n3C)c1 ; strain or isolate: IIIB ; method: syncytia ; result: >40 µg/mL
NC/C=C\Cn1cnc2c(N)ncnc21 ; method: syncytia ; result: 4.83 µM
CC(C)OC(=O)c1cc(NC(=S)OC(C)C)ccc1Cl ; changes: RT-E138K ; method: syncytia ; result: 1.235 µM
COc1ccc(S(=O)(=O)N(CC(C)C)C[C@@H](O)CCN(CC2CCCC2)S(=O)(=O)C2C(=O)CC(C)(C)S(=O)(=O)C2=O)cc1 ; strain or isolate: IIIB ; method: p24 ; result: <1 µM
CCC(CC)OC(=O)c1cc(NC(=S)OC(C)C)ccc1Cl ; strain or isolate: IIIB ; method: syncytia ; result: 0.116 µM
Cc1cc(S(=O)(=O)N2CCNNC2=O)c(S)cc1Cl.O ; method: cytopathic effect / XTT ; result: 9.99 µM
O=C(O)C1=CC(=C(c2ccc(O)c(C(=O)O)c2)c2ccc(O)c(C(=O)O)c2)C=C(Cc2ccc(O)c(C(=O)O)c2)C1=O ; strain or isolate: IIIB ; method: cytopathic effect / XTT ; result: 0.5 µg/mL
NC/C=C/Cn1cc(C(F)(F)F)c(=O)[nH]c1=O ; method: syncytia ; result: >50 µM
N[C@H]1CONC1=O ; strain or isolate: N1T ; method: antigen ; result: <5 µg/mL
CC1(C)[C@@H](CCO)C[C@H]1n1nnc2c(Cl)nc(N)nc21 ; method: cytopathic effect ; result: >4 µg/mL
Cc1ccn2c(C3OCCO3)cnc2c1 ; strain or isolate: IIIB ; method: syncytia ; result: >100 µM
Cc1ccccc1OC(=O)c1cc(NC(=S)OC(C)C)ccc1Cl ; changes: RT-Y181C ; method: syncytia ; result: ≥27.48 µM
CCCCCCCCCCCCCCC(=O)Oc1ccc(COP(=O)(Oc2ccc(OC(=O)CCCC(=O)OCCOCCOCCOC)cc2)OP(=O)(O)OP(=O)(O)OC[C@@H]2C=C[C@H](n3cc(C)c(=O)[nH]c3=O)O2)cc1 ; strain or isolate: IIIB ; method: syncytia / visual reading ; result: 0.31 µM
C=CCOC(=S)Nc1ccc(Cl)c(C(=O)OC(C)C)c1 ; changes: RT-L100I ; method: syncytia ; result: 12.75 µM
O=C(O)c1cccc(Cc2cccc(C(=O)O)c2O)c1O ; strain or isolate: IIIB ; method: cytopathic effect / XTT ; result: 16.5 µg/mL
CC(C)(C)[Si](C)(C)OCC1O[C@@H](NC(=O)NC(=O)c2ccccc2)C(O[Si](C)(C)C(C)(C)C)C12OS(=O)(=O)C=C2N ; strain or isolate: IIIB ; method: syncytia ; result: ≥10 µM
CC(C)COC(=O)c1cc(NC(=S)OC(C)C)ccc1Cl ; changes: RT-E138K ; method: syncytia ; result: 1.667 µM
CC(C)(C)NC(=O)[C@H](Cc1ccccc1)NC(=O)CN(O)C(=O)[C@H](Cc1ccccc1)NC(=O)OCC1c2ccccc2-c2ccccc21 ; strain or isolate: IIIB ; method: p24 ; result: 0.45 µM
CC(C)OC(=S)Nc1ccc(Cl)c(C(=O)SC(C)C)c1 ; changes: RT-E138K ; method: syncytia ; result: 1.205 µM
CC1(CO)CCC(Cn2nnc3c(=O)[nH]c(N)nc32)C1(C)C ; method: cytopathic effect ; result: 26 µg/mL
O=C1c2ccccc2C(=O)N1C/C=C/Cn1cc(C(F)(F)F)c(=O)[nH]c1=O ; method: syncytia ; result: >100 µM
Cn1c2ccccc2c(=O)c2c(O)cccc21 ; strain or isolate: IIIB ; method: MTT ; result: >5.6 µg/mL
CC1(CO)CCC(Cn2cnc3c(Cl)nc(N)nc32)C1(C)C ; method: cytopathic effect ; result: >4 µg/mL
NC/C=C/Cn1cc(F)c(=O)[nH]c1=O ; method: syncytia ; result: >100 µM
Nc1ccc(S(=O)(=O)N(Cc2ccccc2)CC(F)(F)C(=O)[C@@H](Cc2ccccc2)NC(=O)O[C@H]2CCOC2)cc1 ; strain or isolate: IIIB ; method: p24 ; result: <1 µM
CC(C)(C)NC(=O)[C@H]1CCCN1C(=O)[C@H](Cc1ccccc1)N(O)C(=O)[C@H](Cc1ccccc1)NC(=O)OCC1c2ccccc2-c2ccccc21 ; strain or isolate: IIIB ; method: p24 ; result: 0.098 µM
O=C(c1cccc(F)c1)c1ccc2[nH]c(=O)oc2c1 ; strain or isolate: IIIB ; method: syncytia ; result: >8 µg/mL
NCC(=O)CN ; strain or isolate: IIIB ; result: 1000 µM
CC(C)OC(=O)c1cc(NC(=S)OCC2(C)COC2)ccc1Cl ; changes: RT-E138K ; method: syncytia ; result: >29.94 µM
CC1(C)[C@@H](CCO)C[C@H]1n1nnc2c(N)ncnc21 ; method: cytopathic effect ; result: >100 µg/mL
O=S(=O)(c1cccc2cnccc12)N1CCNCC1 ; strain or isolate: IIIB ; method: cytopathic effect / MTT ; result: >10.2 µg/mL
CC(=O)OCCOC(=O)c1cc(NC(=S)OC(C)C)ccc1Cl ; changes: RT-V106A ; method: syncytia ; result: >27.79 µM
CCc1c(Oc2cc(C)cc(C)c2)n(CC2CCC2)c(=O)[nH]c1=O ; strain or isolate: IIIB ; method: XTT ; result: 0.01 µM
Cc1ccn2c(C(SCCc3ccccc3)SCCc3ccccc3)cnc2c1 ; strain or isolate: IIIB ; method: syncytia ; result: >4 µM
CCCCCOC(=S)Nc1ccc(Cl)c(C(=O)OC(C)C)c1 ; strain or isolate: IIIB ; method: syncytia ; result: 1.6 µM
Cc1ccnc2c1N(C(=O)CN1CCN(c3cc4c(cc3F)c(=O)c(C(=O)O)cn4C3CC3)CC1)C(=O)c1cccnc1N2C1CC1 ; method: cytopathic effect / XTT ; result: 0.227 µM
CCCCOC(=O)c1cc(NC(=S)OC(C)C)ccc1Cl ; changes: RT-E138K ; method: syncytia ; result: 1.74 µM
Cc1cn([C@@H]2O[C@@H](CO)[C@H](O)[C@H]2O)c(=O)[nH]c1=O ; strain or isolate: BRU ; method: syncytia ; result: >1000 µM
CCCCC(=O)c1ccc2c(c1)oc(=O)n2CCN1CCOCC1 ; strain or isolate: IIIB ; method: syncytia ; result: >8 µg/mL
CSCCOC(=S)Nc1ccc(Cl)c(C(=O)OC(C)C)c1 ; changes: RT-L100I ; method: syncytia ; result: 14.37 µM
Cc1ccnc2c1N(C(=O)CNNC(=O)c1ccncc1)C(=O)c1cccnc1N2C1CC1 ; method: cytopathic effect / XTT ; result: <0.0636 µM
C[C@@H](O)[C@H](N)C(N)=O ; strain or isolate: IIIB ; result: 500 µM
CCc1c(Sc2cc(C)cc(C)c2)n(CC2CCC2)c(=O)[nH]c1=O ; strain or isolate: IIIB ; method: XTT ; result: 0.002 µM
CC/C=C\C/C=C\C/C=C\CCCCCCCC(=O)OC[C@@H](CO[C@H]1O[C@H](CS(=O)(=O)O)[C@@H](O)[C@H](O)[C@H]1O)OC(=O)CCCCCCCCCCCCCCC ; method: cytopathic effect / XTT ; result: <100 µg/mL
CO/N=C(\C)COc1cc(NC(=S)OC(C)C)ccc1Cl ; changes: RT-V106A ; method: syncytia ; result: 6.045 µM
Nc1ncnc2c1ncn2[C@H]1C[C@@H](O)[C@H](CO)O1 ; strain or isolate: BRU ; method: syncytia ; result: >1000 µM
O=S(=O)(c1cccc2cnccc12)N1CCNCC1 ; strain or isolate: IIIB ; method: cytopathic effect / MTT ; result: >10.2 µg/mL
N[C@H]1C(=O)N[C@@H]2Cc3ccc(c(Cl)c3)Oc3cc4cc(c3O)Oc3ccc(cc3Cl)[C@@H](O)[C@@H]3NC(=O)[C@H](NC(=O)[C@@H]4NC(=O)[C@@H](NC2=O)c2cc(O)cc(c2)Oc2cc1ccc2O)c1ccc(O)c(c1)-c1c(O)cc(O)cc1[C@@H](C(=O)C1NCCC2CCCCC21)NC3=O ; method: syncytia ; result: 1.8 µM
CC(C)CS[C@H]1C[C@@H](n2cnc3c(N)ncnc32)[C@H](O)[C@@H]1O ; strain or isolate: IIIB ; method: cytopathic effect / syncytia / trypan blue ; result: ≥50 µg/mL
CC(C)OC(=S)Nc1ccc(Cl)c(C(=O)O)c1 ; changes: RT-E138K ; method: syncytia ; result: >36.53 µM
NC/C=C/Cn1ccc(=O)[nH]c1=O ; method: syncytia ; result: >100 µM
Cn1c(=O)sc2cc(C(=O)c3ccccc3)ccc21 ; strain or isolate: IIIB ; method: syncytia ; result: 1.6 µg/mL
O=C1c2ccccc2C(=O)N1C/C=C\Cn1cc(F)c(=O)[nH]c1=O ; method: syncytia ; result: >100 µM
CC(C)(C)NC(=O)[C@H]1CCCN1C(=O)[C@H](Cc1ccccc1)N(O)C(=O)[C@H](Cc1ccccc1)NC(=O)OC(C)(C)C ; strain or isolate: IIIB ; method: p24 ; result: 0.452 µM
CCc1c(Oc2cc(C)cc(C)c2)n(CC2CC=CC2)c(=O)[nH]c1=O ; strain or isolate: IIIB ; method: XTT ; result: 0.002 µM
CN1CCN(C(=O)c2ccc3c(=O)c4ccccc4[nH]c3c2)CC1 ; changes: RT-V106A ; method: syncytia ; result: 1.751 µM
Nc1ncnc2c1ncn2[C@@H]1O[C@@H](CO)[C@H](O)[C@H]1O ; strain or isolate: BRU ; method: syncytia ; result: >1000 µM
CC(C)(C)NC(=O)[C@H]1CCCN1C(=O)CN(O)C(=O)[C@H](Cc1ccccc1)NC(=O)OCC1c2ccccc2-c2ccccc21 ; strain or isolate: IIIB ; method: p24 ; result: 1.25 µM
Cc1ccn2c(C3SCCS3)cnc2c1 ; strain or isolate: IIIB ; method: syncytia ; result: >4 µM
O=C1c2ccccc2C(=O)N1CC1OC1CBr ; method: syncytia ; result: >20 µM
CC1(C)[C@@H](CCO)C[C@H]1n1nnc2c(N)nc(N)nc21 ; method: cytopathic effect ; result: >20 µg/mL
COc1ccc(S(=O)(=O)N(CC(C)C)C[C@@H](O)CCN(CC2CCCC2)S(=O)(=O)c2nc3ccccc3o2)cc1 ; strain or isolate: IIIB ; method: p24 ; result: <1 µM
CC(C)OC(=S)Nc1ccc(Cl)c(C(=O)OCC(F)(F)F)c1 ; strain or isolate: IIIB ; method: syncytia ; result: 0.984 µM
Nc1ncnc2c1ncn2C/C=C\CN1C(=O)c2ccccc2C1=O ; method: syncytia ; result: >100 µM
CC1(CO)CCC(Cn2nnc3c(Cl)nc(N)nc32)C1(C)C ; method: cytopathic effect ; result: >0.8 µg/mL
CC(C)CN(CCC(O)CN1CSC[C@H]1C(=O)NC(C)(C)C)S(=O)(=O)c1ccccc1 ; strain or isolate: IIIB ; method: p24 ; result: <1 µM
CCCOC(=O)c1cc(NC(=S)OC(C)C)ccc1Cl ; strain or isolate: IIIB ; method: syncytia ; result: 0.0316 µM
COCCOCCOCCOC(=O)C1(C(=O)OCCOCCOCCOC)C2c3cc4c5c6c3-c3c(cc7c8c3C63CN(CCOCCOCCN)CC36c3c-5c(cc5ccc9cc(c-8c6c9c35)C7)C4)C21 ; strain or isolate: IIIB ; method: cytopathic effect ; result: >4 µM
[N-]=[N+]=N[C@@H]1C[C@@H](n2cc(F)c(N)nc2=O)O[C@H]1CO ; strain or isolate: LAV ; method: RT activity ; result: 0.29 µM
COCCOC(=S)Nc1ccc(Cl)c(C(=O)OC(C)C)c1 ; changes: RT-V106A ; method: syncytia ; result: 21.09 µM
COc1ccc(S(=O)(=O)N(CC(C)C)C[C@@H](O)CCN(CC2CCCC2)S(=O)(=O)C2CCS(=O)(=O)CC2)cc1 ; strain or isolate: IIIB ; method: p24 ; result: <1 µM
Cc1cccc(C(=O)c2ccc3[nH]c(=O)sc3c2)c1 ; strain or isolate: IIIB ; method: syncytia ; result: 4.6 µg/mL
CCCCC(=O)Oc1ccc(COP(=O)(Oc2ccc(OC(=O)CCC(=O)OCCOCCOCCOC)cc2)OP(=O)(O)OP(=O)(O)OC[C@@H]2C=C[C@H](n3cc(C)c(=O)[nH]c3=O)O2)cc1 ; strain or isolate: IIIB ; method: syncytia / visual reading ; result: 0.34 µM
O=C(c1cccc(F)c1)c1ccc2c(c1)oc(=O)n2CCN1CCCCC1 ; strain or isolate: IIIB ; method: syncytia ; result: 5.8 µg/mL
O=C(Nc1ccc(Cl)cc1)c1cc(S(=O)(=O)N2CCNNC2=O)c(S)cc1Cl ; method: cytopathic effect / XTT ; result: 19.8 µM
CCCCCCCCCCCCCCC(=O)Oc1ccc(COP(=O)(Oc2ccc(OC(=O)CCC(=O)OCCOCCOCCOC)cc2)OP(=O)(O)OP(=O)(O)OC[C@@H]2C=C[C@H](n3cc(C)c(=O)[nH]c3=O)O2)cc1 ; strain or isolate: IIIB ; method: syncytia / visual reading ; result: 0.26 µM
NCC(O)CN ; strain or isolate: IIIB ; result: 1000 µM
CCC(C)OC(=O)c1cc(NC(=S)OC(C)C)ccc1Cl ; changes: RT-V106A ; method: syncytia ; result: 3.032 µM

5 of the rows above, restated:

| compound | strain or isolate | changes | method | result |
|---|---|---|---|---|
| Cc1ccnc2c1N(C(=O)CNNC(=O)c1ccncc1)C(=O)c1cccnc1N2C1CC1 |  |  | cytopathic effect / XTT | <0.0636 µM |
| NCC(O)CN | IIIB |  |  | 1000 µM |
| O=C1c2ccccc2C(=O)N1C/C=C/Cn1cc(C(F)(F)F)c(=O)[nH]c1=O |  |  | syncytia | >100 µM |
| Cc1ccn2c(C(SCCc3ccccc3)SCCc3ccccc3)cnc2c1 | IIIB |  | syncytia | >4 µM |
| CC(C)CN(CCC(O)CN1CSC[C@H]1C(=O)NC(C)(C)C)S(=O)(=O)c1ccccc1 | IIIB |  | p24 | <1 µM |